# Laboratory results as given in patent US20210238252A1.
# How the values were obtained:
# [1] = target: HIV Env glycoprotein of HIV-1 isolate BaL (HIV-1 strain BaL); test: cell-based or functional assay
# [2] = target: HIV Env glycoprotein of HIV-1 isolate NL4-3 (HIV-1 strain NL4-3); test: cell-based or functional assay
Substance,"IC50 (ng/mL), neutralization of BaL, TZM-bl assay [1] [ng/mL]","IC50 (ng/mL), neutralization of NL4-3, TZM-bl assay [2] [ng/mL]"
MOLECULE-5 (C34) (Fc fusion),1.2,1.2
MOLECULE-5 (IgG1-C34) (Fc fusion),1.3,0.9
MOLECULE-5 (IgG2-C34) (from UniProt P01859 99-326) (Fc fusion),1.1,0.8
MOLECULE-5 (IgG3-C34) (from UniProt P01860 99-377) (Fc fusion),0.8,0.8
MOLECULE-5 (IgG4-C34) (from UniProt P01861 99-327) (Fc fusion),0.8,0.8
